Compound potency records, mixed from different reports. Data source: NIAID ChemDB in PubChem.

Common to all: tests in culture; species: HIV-1; cell line: MT-4; endpoint: EC50

An empty or dashed field is not shown. ECn: concentration that inhibits the pathogen or its effect by n%. Lines come from different laboratories, so protocols vary.

CCC(C)Oc1cc(=O)[nH]c(Sc2ccc(F)cc2)n1 ; strain or isolate: IIIB ; read by: cytopathic effect / MTT ; result: 56 µM
O=C(O)c1cc(CN2CCCNCCNCCCNCC2)ccc1CN1CCCNCCNCCCNCC1 ; strain or isolate: NL4-3 ; read by: cytopathic effect / MTT ; result: >250 µg/mL
O=C(Cc1ccc(CC(=O)NCCCn2ccnc2)cc1)NCCCn1ccnc1 ; read by: MTT ; result: >306 µM
CCN[C@H]1CO[C@@H]2OCC[C@H](OC(=O)N[C@@H](Cc3ccccc3)[C@H](O)CN(CC(C)C)S(=O)(=O)c3ccc4nc(NC5CC5)sc4c3)[C@@H]21 ; strain or isolate: NL4-3 ; changes: L23I E34Q K43I M46I I50L G51A L63P A71V V82A T91A ; read by: p24 / luminescence ; result: 0.0009 µM
Nc1cc(S(=O)(=O)c2ccccc2)nc(Cl)n1 ; strain or isolate: IIIB ; read by: cytopathic effect / MTT ; result: >10 µM
CCc1cc(NCc2nc3c(Cl)ccc(Cl)c3o2)c(=O)[nH]c1C ; strain or isolate: NL4-3 ; changes: RT-K103N ; read by: p24 ; result: 0.8 µM
Cc1ccnc2c1NC(=O)c1cccnc1N2C1CC1 ; strain or isolate: IIIB ; changes: L100I ; read by: MTT ; result: 0.705 µM
CCC(C)Oc1cc(N)nc(Sc2ccc(N)cc2)n1 ; strain or isolate: IIIB ; read by: cytopathic effect / MTT ; result: >200 µM
Fc1cccc(F)c1[C@@H]1SCc2nc3ccccc3n21 ; strain or isolate: RF ; read by: cytopathic effect / MTT ; result: 0.4 µg/mL
CCC(C)Oc1cc(N)nc(Sc2ccccc2Cl)n1 ; strain or isolate: IIIB ; read by: cytopathic effect / MTT ; result: >87 µM
c1cc(CCNCCN2CCOCC2)ccc1CCNCCN1CCOCC1 ; read by: MTT ; result: >320.1 µM
Cc1cc(C#Cc2ccccn2)cc(C)c1Oc1ccnc(Nc2ccc(C#N)cc2)n1 ; strain or isolate: IIIB ; changes: RES056 ; read by: MTT ; result: >2.068 µM
O=C1Nc2ccccc2Sn2cccc21 ; strain or isolate: IIIB ; read by: cytopathic effect / MTT ; result: 200 µM
O=C(Cc1ccc(CC(=O)NCCN2CCCC2)cc1)NCCN1CCCC1 ; read by: MTT ; result: 10.87 µM
O=C1Nc2ccccc2Cn2cccc21 ; strain or isolate: IIIB ; read by: cytopathic effect / MTT ; result: >300 µM
CCC(C)Oc1cc(=O)[nH]c(Sc2ccccc2OC)n1 ; strain or isolate: IIIB ; read by: cytopathic effect / MTT ; result: 65 µM
Cc1cc(C#Cc2ccc(N)cc2)cc(C)c1Oc1ccnc(Nc2ccc(C#N)cc2)n1 ; strain or isolate: IIIB ; changes: Y188L ; read by: MTT ; result: 0.504 µM
C1CNCCNCCCN2CCCNCCNCCCN(C1)CC2 ; strain or isolate: RF ; read by: cytopathic effect / MTT ; result: >250 µg/mL
Cc1cc(C#Cc2cccnc2)cc(C)c1Oc1ccnc(Nc2ccc(C#N)cc2)n1 ; strain or isolate: IIIB ; read by: MTT ; result: 0.003 µM
c1cc(CN2CCCNCCCNCCNCCC2)ccc1CN1CCCNCCCNCCNCCC1 ; strain or isolate: NL4-3 ; changes: AMD3100-resistant ; read by: cytopathic effect / MTT ; result: 2.65 µg/mL
COc1ccc(S(=O)(=O)N(CC(C)C)C[C@@H](O)[C@H](Cc2ccccc2)NC(=O)O[C@H]2CCO[C@H]3OCC[C@H]32)cc1 ; strain or isolate: NL4-3 ; changes: L10I I15V K20R L24I V32I M36I M46I I54V I62V L63P K70Q V82A L88M ; read by: p24 / luminescence ; result: 0.427 µM
CC(C)(C)NC(=O)[C@@H]1C[C@@H]2CCCC[C@@H]2CN1C[C@@H](O)[C@H](Cc1ccccc1)NC(=O)[C@H](CC(N)=O)NC(=O)c1ccc2ccccc2n1 ; strain or isolate: NL4-3-P22 (PR D30N A71V) ; changes: PR-D30N A71V ; read by: p24 ; result: <0.01 µM
COC(=O)c1cc(CN2CCCNCCNCCCNCC2)ccc1CN1CCCNCCNCCCNCC1 ; strain or isolate: AOM ; read by: cytopathic effect / MTT ; result: 0.87 µg/mL
Cc1cc(C#Cc2ccc(C(F)(F)F)cc2)cc(C)c1Oc1ccnc(Nc2ccc(C#N)cc2)n1 ; strain or isolate: IIIB ; changes: E138K ; read by: MTT ; result: ≥1.34 µM
CNC(C)(C)c1nc(C(=O)NCc2ccc(F)cc2)c(O)c(=O)[nH]1 ; strain or isolate: IIIB ; read by: p24 ; conditions: 10% FBS ; result: <0.25 µM
Cc1cn([C@H]2C[C@H](N=[N+]=[N-])[C@@H](CO)O2)c(=O)[nH]c1=O ; strain or isolate: IIIB ; read by: cytopathic effect / MTT ; result: 0.01 µM
CC(C)Nc1cccnc1N1CCN(C(=O)c2cc3cc(NS(C)(=O)=O)ccc3[nH]2)CC1 ; strain or isolate: IIIB ; changes: F227L + V106A ; read by: MTT ; result: 2.616 µM
CC(C)N1C(=O)c2cccn2S(=O)(=O)c2ccc(Cl)cc21 ; strain or isolate: IIIB ; read by: cytopathic effect / MTT ; result: >300 µM
Cc1cc(/C=C/c2ccccc2)cc(C)c1Oc1ccnc(Nc2ccc(C#N)cc2)n1 ; strain or isolate: IIIB ; changes: Y188L ; read by: MTT ; result: 1.65 µM
C1CNCCNCCCN(CCCN2CCCNCCNCCCNCC2)CCNC1 ; strain or isolate: IIIB ; read by: cytopathic effect / MTT ; result: 0.37 µM
CN[C@H]1CO[C@@H]2OCC[C@H](OC(=O)N[C@@H](Cc3ccccc3)[C@H](O)CN(CC(C)C)S(=O)(=O)c3ccc4nc(NC5CC5)sc4c3)[C@@H]21 ; strain or isolate: NL4-3 ; changes: L10I L33I M36I M46I I54V K55R I62V L63P A71V G73S V82T L90M I93L ; read by: p24 / luminescence ; result: 0.038 µM
O=C1c2cccn2S(=O)(=O)c2ccccc2N1CC1CC1 ; strain or isolate: IIIB ; read by: cytopathic effect / MTT ; result: 32 µM
Cc1ccc(/C=C/c2cc(C)c(Oc3ccnc(Nc4ccc(C#N)cc4)n3)c(C)c2)cc1 ; strain or isolate: IIIB ; changes: Y188L ; read by: MTT ; result: 1.326 µM
CCN(C)C(C)(C)c1nc(C(=O)NCc2ccc(F)cc2)c(O)c(=O)[nH]1 ; strain or isolate: IIIB ; read by: p24 ; conditions: 50% human serum ; result: <0.5 µM
COc1ccc(S(=O)(=O)N(CC(C)C)C[C@@H](O)[C@H](Cc2ccccc2)NC(=O)O[C@H]2CCO[C@H]3OC[C@H](O)[C@H]32)cc1 ; strain or isolate: NL4-3 ; changes: L10I I54V K20R L24I V32I L33F M36I M46I I54M L63P K70Q V82I I84V L89M ; read by: p24 / luminescence ; result: 0.581 µM
O=C1Nc2cc(Cl)ccc2S(=O)(=O)n2cccc21 ; strain or isolate: IIIB ; read by: cytopathic effect / MTT ; result: 35 µM
Cc1cc(C#Cc2ccccc2)cc(C)c1Oc1ccnc(Nc2ccc(C#N)cc2)n1 ; strain or isolate: IIIB ; changes: F227L + V106A ; read by: MTT ; result: >12.5 µM
CC(C)CN(C[C@@H](O)[C@H](Cc1ccccc1)NC(=O)O[C@H]1CCOC1)S(=O)(=O)c1ccc(N)cc1 ; strain or isolate: NL4-3 ; changes: L10I L33I M36I M46I I54V K55R I62V L63P A71V G73S V82T L90M I93L ; read by: p24 / luminescence ; result: >1 µM
CCC(C)Oc1cc(=O)[nH]c(S(=O)(=O)c2ccccc2)n1 ; strain or isolate: IIIB ; read by: cytopathic effect / MTT ; result: >109 µM
CCN1CCCCC1c1nc(C(=O)NCc2ccc(F)cc2)c(O)c(=O)[nH]1 ; strain or isolate: IIIB ; read by: p24 ; conditions: 10% FBS ; result: <0.25 µM
C1CNCCNCCCN[C@H]([C@@H]2CNCCCNCCNCCCN2)CNC1 ; strain or isolate: IIIB ; read by: cytopathic effect / MTT ; result: 0.43 µM
CC(c1nc(C(=O)NCc2ccc(F)cc2)c(O)c(=O)[nH]1)N(C)C ; strain or isolate: IIIB ; read by: p24 ; conditions: 10% FBS ; result: <0.12 µM
CC1CCN(CCCN2c3ccccc3NC(C)c3cccn32)CC1 ; strain or isolate: IIIB ; read by: cytopathic effect / MTT ; result: >173 µM
CN1CCN(C)C(c2nc(C(=O)NCc3ccc(F)cc3)c(O)c(=O)[nH]2)C1 ; strain or isolate: IIIB ; read by: p24 ; conditions: 10% FBS ; result: <0.12 µM
CC(=O)Oc1ccc(/C=C/C(=O)O[C@@H](C(=O)O)[C@@H](OC(=O)/C=C/c2ccc(OC(C)=O)c(OC(C)=O)c2)C(=O)O)cc1OC(C)=O ; strain or isolate: NL4-3 ; changes: Dextran sulfate-resistant ; result: >74 µM
CC1CCCCN1CCCNCc1ccc(CNCCCN2CCCCC2C)cc1 ; read by: MTT ; result: 0.12 µM
O=C(NCc1ccc(F)cc1)c1nc(C2CCCCN2)[nH]c(=O)c1O ; strain or isolate: IIIB ; read by: p24 ; conditions: 50% human serum ; result: <5.83 µM

The last 4 rows once more:

smiles,strain or isolate,changes,read by,conditions,result
CN1CCN(C)C(c2nc(C(=O)NCc3ccc(F)cc3)c(O)c(=O)[nH]2)C1,IIIB,,p24,10% FBS,<0.12 µM
CC(=O)Oc1ccc(/C=C/C(=O)O[C@@H](C(=O)O)[C@@H](OC(=O)/C=C/c2ccc(OC(C)=O)c(OC(C)=O)c2)C(=O)O)cc1OC(C)=O,NL4-3,Dextran sulfate-resistant,,,>74 µM
CC1CCCCN1CCCNCc1ccc(CNCCCN2CCCCC2C)cc1,,,MTT,,0.12 µM
O=C(NCc1ccc(F)cc1)c1nc(C2CCCCN2)[nH]c(=O)c1O,IIIB,,p24,50% human serum,<5.83 µM